# Columns and labels:
# [1] = target: K/2785 virus (A/Korea/2785/2009) neuraminidase (NA H275Y) (Influenza A virus, UniProt C5MQP8, H275Y); assay: fluorescent NI assay (MU-NANA substrate); type: biochemical, 2009 pandemic H1N1 oseltamivir-resistant variant; conditions: K/2785 vs K/09
# [2] = target: rK09/NA:Y275 virus neuraminidase (NA H275Y) (Influenza A virus, UniProt C5MQP8, H275Y); assay: fluorescent NI assay (MU-NANA substrate); type: biochemical, 2009 pandemic H1N1 virus (recombinant); conditions: rK09/NA:Y275 vs K/09
smiles,measurement,setting,value
CCC(CC)O[C@@H]1C=C(C(=O)O)C[C@H](N)[C@H]1NC(C)=O [Oseltamivir carboxylate],higher concentration needed compared with K/09 virus,[1],more than 20 fold
same,elevation of IC50 compared with K/09 virus,[2],more than 75 fold
